Results on 1 molecule are retold here after ChEMBL document CHEMBL4680272 (Eur J Med Chem, 2020).

The subject of the test is Influenza A virus (A/California/04/2009(H1N1)). The test can be described thus: Potency index, ratio of oseltamivir carboxylate IC50 to test compound IC50 for inhibition of Influenza A virus (A/California/04/2009 (H1N1-H274Y)) Neuraminidase using MUNANA as substrate preincubated for 5 to 15 mins followed by substrate addition and measured after 30 mins by fluorescence …. To be noted: time 35-45 min.

Molecules are shown by their SMILES.

As for `CCC(CC)O[C@@H]1C=C(C(=O)O)C[C@H](NC(N)=O)[C@H]1NC(C)=O`, the Ratio IC50 came out at 6.
